Measurements reported in the supplement of paper PMC12045047.
The list shows a part of the results, in another mix than the full data.

System: primary human airway basal cells (HBEC, luciferase-transduced)
Assay: proliferation (luciferase bioluminescence) Z score relative to plate mean; higher = more proliferation / more cells, active = 1.96 or more
Settings: donor: 1; 0.5 µM; library: ENZO Libraries; 4 days
Experimental: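 Primary human bronchial epithelial (airway basal) cells from two donors, lentivirally transduced with pHIV-Luc-ZsGreen, were seeded at 2000 cells/well in 384-well plates in FAD medium with ENZO or Prestwick library compounds and cultured for 4 days. Luciferin was then added and bioluminescence was read as a measure of cell number. Relative light units were converted to Z scores against the plate, and the mean of triplicate wells is reported.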

Row | Compound | proliferation
1 | COc1ccc(C=C(C#N)C#N)cc1 | inactive: -0.342

Same assay, conditions: donor: 1; 5 µM; library: ENZO Libraries; 4 days

Row | Compound | proliferation
2 | COc1ccc(C=C(C#N)C#N)cc1 | inactive: -0.0696
